{"source": "PubChem BioAssay AID504761 (Drosophila RNAi Screening Center, 2011)", "screen": "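Fly genes whose silencing reduces dengue virus type 2 infection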 (primary screen)", "cell system": "D.Mel-2 cells from Drosophila", "knock-down reagent": "long dsRNA against Drosophila genes", "treatment": "infection with dengue virus type 2; dose and infection time not stated", "read-out": "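Cells stained for dengue envelope protein and imaged; percent of infected cells per well on duplicate plates, ranked by infection, with stained nuclei counted for cell number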", "reading the numbers": "infection score: higher = more virus-infected cells", "rule for the call": "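Low infection ranks in the two replicates (chance level up to 0.065) followed by a retest with a 1.5-fold or larger significant decrease, p below 0.05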", "meaning of the calls": "active = confirmed: knock-down lowers infection; inactive = not picked or not confirmed", "note": "The screen tested about 22,000 reagents; below is an unselected part of those with a known target gene and a result. Of all reagents, 116 (0.52%) were called active. 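Calls depend on retest data that are not deposited; infection was ranked per plate without normalising between plates; the unit of the infection score is not given.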 Further read-outs or replicates are left out here. The record does not give: the amount of reagent, the time to read-out."}
{"gene knocked down": "CG2182 (GeneID 40697)", "dsRNA": "DRSC12308", "infection score, replicate 1": 9.23, "outcome": "inactive"}
{"gene knocked down": "CG2182 (GeneID 40697)", "dsRNA": "DRSC30052", "infection score, replicate 1": 3.67, "outcome": "inactive"}
{"gene knocked down": "CG11251 (GeneID 39490)", "dsRNA": "DRSC09825", "infection score, replicate 1": 2.23, "outcome": "inactive"}
{"gene knocked down": "CG11436 (GeneID 31386)", "dsRNA": "DRSC17783", "infection score, replicate 1": 4.74, "outcome": "inactive"}
{"gene knocked down": "Dph3 (GeneID 41352)", "dsRNA": "DRSC14923", "infection score, replicate 1": 4.93, "outcome": "inactive"}
{"gene knocked down": "Dph3 (GeneID 41352)", "dsRNA": "DRSC25545", "infection score, replicate 1": 10.9, "outcome": "inactive"}
{"gene knocked down": "CG2200 (GeneID 32258)", "dsRNA": "DRSC19840", "infection score, replicate 1": 0.73, "outcome": "inactive"}
{"gene knocked down": "Mst27D (GeneID 319019)", "dsRNA": "DRSC00967", "infection score, replicate 1": 1.73, "outcome": "inactive"}
{"gene knocked down": "CG12134 (GeneID 36038)", "dsRNA": "DRSC06109", "infection score, replicate 1": 13.8, "outcome": "inactive"}
{"gene knocked down": "CG12134 (GeneID 36038)", "dsRNA": "DRSC24332", "infection score, replicate 1": 13.2, "outcome": "inactive"}
{"gene knocked down": "CG6900 (retired record) (GeneID 32868)", "dsRNA": "DRSC20018", "infection score, replicate 1": 6.27, "outcome": "inactive"}
{"gene knocked down": "CG4887 (GeneID 33304)", "dsRNA": "DRSC00670", "infection score, replicate 1": 13.2, "outcome": "inactive"}
{"gene knocked down": "CG4887 (GeneID 33304)", "dsRNA": "DRSC21563", "infection score, replicate 1": 4.07, "outcome": "inactive"}
{"gene knocked down": "CG4887 (GeneID 33304)", "dsRNA": "DRSC25723", "infection score, replicate 1": 4, "outcome": "inactive"}
{"gene knocked down": "Atx-1 (GeneID 31624)", "dsRNA": "DRSC18365", "infection score, replicate 1": 7.08, "outcome": "inactive"}
{"gene knocked down": "w-cup (GeneID 34455)", "dsRNA": "DRSC03048", "infection score, replicate 1": 4.74, "outcome": "inactive"}
{"gene knocked down": "CG9396 (GeneID 41156)", "dsRNA": "DRSC16487", "infection score, replicate 1": 2.93, "outcome": "inactive"}
{"gene knocked down": "CG9396 (GeneID 41156)", "dsRNA": "DRSC24611", "infection score, replicate 1": 2.55, "outcome": "inactive"}
{"gene knocked down": "CG10347 (GeneID 32141)", "dsRNA": "DRSC19352", "infection score, replicate 1": 1.41, "outcome": "inactive"}
{"gene knocked down": "CG1907 (GeneID 43483)", "dsRNA": "DRSC15399", "infection score, replicate 1": 6.38, "outcome": "inactive"}
{"gene knocked down": "Cpr97Eb (GeneID 43259)", "dsRNA": "DRSC15123", "infection score, replicate 1": 5.61, "outcome": "inactive"}

Entries above whose gene name begins with D or d (2):
{"gene knocked down": "Dph3 (GeneID 41352)", "dsRNA": "DRSC14923", "infection score, replicate 1": 4.93, "outcome": "inactive"}
{"gene knocked down": "Dph3 (GeneID 41352)", "dsRNA": "DRSC25545", "infection score, replicate 1": 10.9, "outcome": "inactive"}
